Data as given in article PMC5512693, “Bacterial RadA is a DnaB-type helicase interacting with RecA to promote bidirectional D-loop extension” (Nature Communications, 2017).

Legend:
[1] = tested on: RadA (Streptococcus pneumoniae (R800 derivative)); assay: EMSA; conditions: 10 mM Mg2+, 10 mM Mg(OAc)2, 0.1 mg/ml BSA, 8% glycerol, 1 mM DTT, 10 nM DNA, 15 min 37 C, recombinant protein
[2] = tested on: RadA (Streptococcus pneumoniae (R800 derivative)); assay: competition with a labelled probe; conditions: 5-20 nM Ovio8-Cy5 against 10 nM Ovio10-Cy3, 10 mM Mg2+; competition: 10 mM Tris-Cl pH 7.5, ~50 mM NaCl, 10 mM Mg(OAc)2; recombinant protein; label: 3' Cy5; single-stranded DNA

Sequence: AATCATGGTCATAGCTGTTTCCTGTGTGAATAGCAATGTAATCGTCTATGACGTTAAACCATCGATAGCAGCACCGTAATCAGTAGCGACAGAATCAAGT (double strand) [D structure, 100-bp dsDNA (Ovio9-Cy3 + Olea41, inferred)]
- binding result ([1]; 5 mM ATP, 50 mM Tris-Cl pH 7.5, 100 mM NaCl, label: 3' Cy3 on strand 1): binds more weakly
- binding result ([1]; no ATP, slightly weaker than ssDNA, 50 mM Tris-Cl pH 7.5, 100 mM NaCl, +/- 5 mM ATP, label: 3' Cy3 on strand 1): binds

Sequence: ACTTGATTCTGTCGCTACTGATTACGGTGCTGCTATCGATGGTTTAACGTCATAGACGATTACATTGCTAATTGTTATCCGCTCACAATTCCACACAACA [Ovio8-Cy5]
- binding result [2]: binds

Sequence: AATCATGGTCATAGCTGTTTCCTGTGTGAAATCACTGGCACTGGTAGAATTCGGCCCATTAGCAAGGCCGGAAACGTCACCCTCCAGTTTCTCGCCTCTG [Ovio10-Cy3]
- binding result ([1]; 750 nM RadA, displaced by Ovio8-Cy5, 50 mM Tris-Cl pH 7.5, 100 mM NaCl, +/- 5 mM ATP, label: 3' Cy3, single-stranded DNA): binds

Construct, isoform or probe ends are uncertain for at least one entry. For some of these results: A weaker result is weaker than the reference pair of the same experiment.
